Results taken from patent publication US12708649B2, “Compositions and methods for improving skin health and for the treatment and prevention of diseases, disorders and conditions associated with fungi and other pathogenic microbes” (priority 2020, dated 2026).
Values joined by “and” are separate entries in the source; they are usually repeats but may differ in a detail not shown here. Identical values can stand only once. Like-named read-outs stand apart in the source and are kept apart here. Where a SMILES comes first, the peptide text is derived from it.

Tested on: Alcaligenes faecalis DB05646 / Malassezia furfur cultures
Test: Metabolite profile by LC-MS: DB05646 single culture and co-culture with M. furfur
[1] = DB05646 single culture, Media 22, 48 hours

| Compound | Fold of change Coculture vs DB05646 (DB05646-M. furfur co-culture) | Fold of change Coculture vs M.furfur (DB05646-M. furfur co-culture) | Fold of change Coculture vs Media (DB05646-M. furfur co-culture) [fold] | Fold of change DB05646 vs Media [1] | Fold of change M.furfur vs Media (M. furfur single culture) | Fold of change Coculture vs DB05646 [fold] | Fold of change Coculture vs M.furfur [fold] | Fold of change Coculture vs Media [fold] | Fold of change DB05646 vs Media [fold] | Fold of change M.furfur vs Media [fold] |
| --- | --- | --- | --- | --- | --- | --- | --- | --- | --- | --- |
| CCCCC1(COC(=O)CCC(=O)O)C(=O)N(c2ccccc2)N(c2ccccc2)C1=O [Suxibuzone] | 68.4 fold | 0.4 fold | 74.2 | 1.1 fold | 167.0 fold |  |  |  |  |  |
| C[C@H](O)c1nc(=O)c2ccccc2[nH]1 [2-[(1S)-1-Hydroxyethyl]-4(1H)-quinazolinone] | 0.8 fold | 0.9 fold | 376.8 | 479.8 fold | 412.0 fold |  |  |  |  |  |
| CCC(=O)OC(C)C(=O)SC (stereo not shown) [METHYLTHIO 2-(PROPIONYLOXY) PROPIONATE] | 0.8 fold | 13.7 fold | 141.3 | 175.0 fold | 10.3 fold |  |  |  |  |  |
| O=C1CCCC(C(=O)O)N1 (stereo not shown) [6-Oxo-pipecolinic acid] | 0.9 fold and 0.8 fold | 2.3 fold and 2.7 fold and 1.8 fold |  |  |  |  |  |  |  |  |
| O=C(O)/C=C/c1c[nH]cn1 [Urocanic acid] |  |  |  |  |  | 0.6 | 0.1 | 17.3 | 28.6 | 271.3 |
| CC(C)C[C@H](N)C(=O)N[C@H](C(=O)O)C(C)C [Leu-Val] (H-Leu-Val-OH) | 0.5 fold | 9.8 fold | 8.6 | 16.2 fold | 0.9 fold |  |  |  |  |  |
| CC1NCCS1 (stereo not shown) [2-Methylthiazolidine] | 0.8 fold | 2.6 fold | 75.1 | 89.0 fold | 28.6 fold |  |  |  |  |  |
| O=Cc1ccco1 [Furfural] | 0.5 fold | 7.1 fold | 2.3 | 4.7 fold | 0.3 fold |  |  |  |  |  |
| CC(=O)NCCCCCN [N-Acetylcadaverine] | 0.9 fold | 1.1 fold | 245.3 | 266.7 fold | 215.9 fold |  |  |  |  |  |
| CC(C)[C@H](N)C(=O)N1CC(O)C[C@H]1C(=O)O (stereo partly shown) [Valyl-4-hydroxyproline] | 0.8 fold | 5.4 fold | 4.7 | 5.8 fold | 0.9 fold |  |  |  |  |  |
| Nc1nc2c(ncn2[C@@H]2O[C@H](CO)[C@@H](O)[C@H]2O)c(=O)[nH]1 [Guanosine] | 0.0 fold | 0.0 fold | 0.1 | 41.6 fold | 21.1 fold |  |  |  |  |  |
| C1=NCCC1 [1-pyrroline] | 0.6 fold | 1.1 fold | 78.9 | 129.6 fold | 70.1 fold |  |  |  |  |  |
| O=C(O)CN1CCOCC1 [4-Morpholinylacetic acid] | 1.0 fold and 0.6 fold |  |  | 196.9 fold and 109.4 fold | 247.0 fold and 366.5 fold |  |  |  |  |  |
| CCCCC#N [Valeronitrile] |  |  |  |  |  | 1.1 | 44.8 | 62.8 | 57.5 | 1.4 |
| Cc1nc(C)c(C)nc1C [2,3,5,6-Tetramethylpyrazine] | 0.4 fold | 16.2 fold | 14.0 | 31.4 fold | 0.9 fold |  |  |  |  |  |
| Isopropyl methoxy pyrazine | 0.5 fold | 37.4 fold | 39.3 | 85.1 fold | 1.1 fold |  |  |  |  |  |
| COc1cc(C=O)ccc1O [vanillin] | 0.9 fold | 1.2 fold | 363.4 | 384.0 fold | 312.5 fold |  |  |  |  |  |
| Cn1cccc1 [1-Methyl-1H-pyrrole] | 0.8 fold | 4.8 fold | 426.1 | 511.2 fold | 88.7 fold |  |  |  |  |  |

| Compound | Fold of change Coculture vs DB05646 (DB05646-M. furfur co-culture) | Fold of change Coculture vs M.furfur (DB05646-M. furfur co-culture) | Fold of change Coculture vs Media (DB05646-M. furfur co-culture) [fold] | Fold of change DB05646 vs Media [1] | Fold of change M.furfur vs Media (M. furfur single culture) | Fold of change Coculture vs DB05646 [fold] | Fold of change Coculture vs M.furfur [fold] | Fold of change Coculture vs Media [fold] | Fold of change DB05646 vs Media [fold] | Fold of change M.furfur vs Media [fold] |
| --- | --- | --- | --- | --- | --- | --- | --- | --- | --- | --- |
| NCCCCN [Putrescine] | 0.7 fold | 1.2 fold | 14.3 | 19.9 fold | 12.1 fold |  |  |  |  |  |
| NCCCC[C@H](N)C(=O)N1CCC[C@H]1C(=O)O [Lys-Pro] (H-Lys-Pro-OH) | 0.4 fold | 1.8 fold | 2.7 | 6.2 fold | 1.5 fold |  |  |  |  |  |
| NC(CCCC(=O)O)C(=O)O (stereo not shown) [Aminoadipic acid] | 0.6 fold | 90.8 fold | 68.0 | 106.4 fold | 0.7 fold |  |  |  |  |  |
| CC/C(=C(\c1ccc(O)cc1)c1ccc(OCCN)cc1)c1ccccc1 [(Z)-Norendoxifen] | 0.6 fold | 4.2 fold | 13.3 | 22.4 fold | 3.1 fold |  |  |  |  |  |
| NC(=O)[C@@H]1CCCN1 [Prolinamide] | 0.7 fold | 123.7 fold | 13.8 | 20.6 fold | 0.1 fold |  |  |  |  |  |
| CC(=O)NCCCCN [(1Z)-N-(4-Aminobutyl)ethanimidic acid] | 0.6 fold | 0.9 fold | 3.3 | 5.6 fold | 3.7 fold |  |  |  |  |  |
| CCc1ncccc1C(N)=O [2-Ethylnicotinamide] | 0.6 fold | 56.4 fold | 49.4 | 81.3 fold | 0.9 fold |  |  |  |  |  |
| Hexose dimer1 | 0.1 fold | 0.2 fold | 1.1 | 8.2 fold | 6.3 fold |  |  |  |  |  |
| CNc1ncnc2c1ncn2[C@@H]1O[C@H](CO)[C@@H](O)[C@H]1O [N(6)-Methyladenosine] | 0.0 fold | 0.0 fold | 0.7 | 19.3 fold | 16.3 fold |  |  |  |  |  |
| NCCCC[C@H](NC=O)C(N)=O [(2S)-6-Amino-2-[(E)-(hydroxymethylene)amino]hexanimidic acid] | 0.7 fold | 4.3 fold | 5.9 | 8.0 fold | 1.4 fold |  |  |  |  |  |
| COC(=O)Cc1c[nH]c2ccccc12 [Methyl indole-3-acetate] | 0.9 fold | 7.5 fold | 9.1 | 10.3 fold | 1.2 fold |  |  |  |  |  |
| Cl.N#CC1(O)CN2CCC1CC2 (stereo not shown) [3-hydroxyquinuclidine-3-carbonitrile hydrochloride] |  |  |  |  |  | 0.5 | 45.7 | 11.7 | 21.9 | 0.3 |
| CCC(C)c1nccnc1OC (stereo not shown) [2-sec-Butyl-3-methoxypyrazin] | 0.2 fold | 24.2 fold | 31.4 | 135.2 fold | 1.3 fold |  |  |  |  |  |
| Cc1c[nH]c(=O)[nH]c1=O [Thymine] | 11.5 fold | 14.1 fold | 0.8 | 0.1 fold | 0.1 fold |  |  |  |  |  |
| NCCNCCO [Aminoethylethanolamine] | 0.7 fold | 0.5 fold | 7.2 | 10.2 fold | 15.4 fold |  |  |  |  |  |
| CC(O)CC(=O)O (stereo not shown) [3-Hydroxybutyric acid] | 0.9 fold | 17.3 fold | 0.2 | 0.2 fold | 0.0 fold |  |  |  |  |  |
| CC(=O)N[C@@H](CCC(=O)O)C(=O)O [N-Acetylglutamic acid] | 0.7 fold | 1.4 fold | 12.6 | 17.6 fold | 9.2 fold |  |  |  |  |  |
| O=C(CO)[C@H](O)[C@H](O)COP(=O)(O)O [Ribulose-5-phosphate] | 2.4 fold | 9.9 fold | 305.2 | 126.7 fold | 30.7 fold |  |  |  |  |  |
